Article PMC5336307

Legend:
Assay in all cases: ITC
[1] = biological target: Pr50GagΔp6 (UniProt P12493); details: ITC at 30 C in TBS with 1 mM TCEP (pH not stated); 8 uM (6-10) protein in cell, 40 uM (15-50) nucleic acid in syringe; one-site model; recombinant protein; protein details: C-terminal His
[2] = biological target: p7NC (UniProt P12493); details: ITC at 30 C in TBS with 1 mM TCEP (pH not stated); 8 uM (6-10) protein in cell, 40 uM (15-50) nucleic acid in syringe; one-site model; recombinant protein; protein details: C-terminal His
[3] = biological target: p15NC-SP2-p6 (UniProt P12493); details: ITC at 30 C in TBS with 1 mM TCEP (pH not stated); 8 uM (6-10) protein in cell, 40 uM (15-50) nucleic acid in syringe; one-site model; recombinant protein; protein details: C-terminal His
[4] = biological target: Pr55Gag (UniProt P12493); details: ITC at 30 C in TBS with 1 mM TCEP (pH not stated); 8 uM (6-10) protein in cell, 40 uM (15-50) nucleic acid in syringe; one-site model; recombinant protein; residues 1-500; protein details: C-terminal His

Measured: binding result

AAGGAAAGGAAAGGAAAGGA [4x 5'-AAGGA-3' (A-containing)]
binds: [1] | [2] | [3]

GAGAAGAGAAGAGAAGAGAA [4x 5'-GAGAA-3' (A-containing)]
binds: [2] | [3]

UGUGGUGUGGUGUGGUGUGG [4x 5'-UGUGG-3' (GU-containing)]
binds: all assays above

The exact form of at least one protein or probe is not confirmed. At least one verdict was read from the data and is not stated in words by the source.
